Experimental data taken from article PMC4265319.
For at least one entry, the source does not settle the construct or the ends of the probe.

Target: T1, LacR (Staphylococcus aureus) (UniProt Q5HE08)
T1 sequence: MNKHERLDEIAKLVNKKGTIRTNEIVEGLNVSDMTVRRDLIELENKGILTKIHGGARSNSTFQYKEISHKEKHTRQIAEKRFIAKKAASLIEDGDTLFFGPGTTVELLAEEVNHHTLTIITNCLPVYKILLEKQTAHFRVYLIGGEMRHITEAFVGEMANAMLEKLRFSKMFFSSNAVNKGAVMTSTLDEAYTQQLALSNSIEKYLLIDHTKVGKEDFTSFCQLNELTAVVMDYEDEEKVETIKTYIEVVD
Test: EMSA
Settings: 0.01, 0.1, 1 uM LacR, shift at higher concentrations; EMSA 25 C, 20 min, 20 ul, 1x binding buffer, 2.5% glycerol, 50 ng/ml poly(dI-dC), 0.05% NP-40; recombinant protein; residues 1-251; protein details: C-terminal His (pET24d+); label: 5' biotin on both strands; probe letters rebuilt from the primers and the genome

Does “GGCTTTCAATTTGATTACGTTTAAATTATAAACATAAACAAACAATAAATCAACATAATATGTTTATAATATGTTTGTTTATGACGTATTTTCAAACAATAAGTGAACATTCATATTGTGGTGTTGTTTTAATTAGGTATTCGTCTGAAATTGTAGTAAAACTTTGTCGAGGTTCCCGTTGACATAAATTTGCATAAAAAATAGCCCATAAATGAATGCAAATTCACATTCACTTATGAGCATATAGATACATATTTTAACAATGCAGTTATACTTTTAATTTAG (double strand) [lac operon promoter]” bind?
Result: binds
